{"source": "PubChem BioAssay AID624099 | ICCB-Longwood, 2012", "purpose": "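Human genes that papillomavirus E2 requires to repress the HPV18 LCR promoter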 (primary screen)", "cells": "human C33A cervical carcinoma cells (HPV-negative) stably expressing BPV1 E2 and an HPV18 LCR luciferase reporter", "reagent": "siRNA pool against human genes, 40 nM", "timing": "72 h", "measurement": "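HPV18 LCR reporter light per well, converted to plate-wise z-scores that exclude control wells, and averaged over triplicate plates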", "scale": "mean z-score and z-score: higher = stronger reporter signal, weaker E2 silencing", "rule for the call": "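Mean z ≥ 2 together with z ≥ 2 in two or more of the three replicates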", "note": "The whole screen tested about 21,000 reagents; below is an unselected part. Of all reagents, 497 (2.4%) were called active. 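Higher z means weaker E2 silencing; only reporter increases were scored, and knock-downs that hurt cell survival may mask genuine repressor factors.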 A number with no mark means an inactive call."}
{"target gene": "CILP2 (GeneID 148113)", "mean z-score": "2.03 (active)", "z-score, replicate A": 2.22, "z-score, replicate B": 1.8, "z-score, replicate C": 2.08}
{"target gene": "GABBR1 (GeneID 2550)", "mean z-score": -0.64, "z-score, replicate A": -0.58, "z-score, replicate B": -0.87, "z-score, replicate C": -0.47}
{"target gene": "DPPA5 (GeneID 340168)", "mean z-score": 0.74, "z-score, replicate A": 0.68, "z-score, replicate B": 0.52, "z-score, replicate C": 1.02}
{"target gene": "JADE1 (GeneID 79960)", "mean z-score": -0.06, "z-score, replicate A": 0.1, "z-score, replicate B": 0.25, "z-score, replicate C": -0.52}
{"target gene": "WASHC2A (GeneID 387680)", "mean z-score": 0.15, "z-score, replicate A": 0.57, "z-score, replicate B": -0.27, "z-score, replicate C": 0.15}
{"target gene": "CYP2W1 (GeneID 54905)", "mean z-score": 0.27, "z-score, replicate A": 0.18, "z-score, replicate B": 0.22, "z-score, replicate C": 0.42}
{"target gene": "LOXHD1 (GeneID 125336)", "mean z-score": -0.58, "z-score, replicate A": -0.42, "z-score, replicate B": -0.78, "z-score, replicate C": -0.56}
{"target gene": "THAP12 (GeneID 5612)", "mean z-score": 0.37, "z-score, replicate A": 0.47, "z-score, replicate B": 0.08, "z-score, replicate C": 0.55}
{"target gene": "SLC2A1 (GeneID 6513)", "mean z-score": -0.4, "z-score, replicate A": -0.34, "z-score, replicate B": -0.32, "z-score, replicate C": -0.53}
{"target gene": "PPP6R3 (GeneID 55291)", "mean z-score": -1.43, "z-score, replicate A": -1.47, "z-score, replicate B": -1.25, "z-score, replicate C": -1.58}
{"target gene": "H2BC10 (GeneID 8346)", "mean z-score": -0.51, "z-score, replicate A": -0.31, "z-score, replicate B": -0.94, "z-score, replicate C": -0.29}
{"target gene": "PPP2R5D (GeneID 5528)", "mean z-score": 0.1, "z-score, replicate A": 0.21, "z-score, replicate B": -0.05, "z-score, replicate C": 0.12}
{"target gene": "UTP11 (GeneID 51118)", "mean z-score": -0.37, "z-score, replicate A": -0.51, "z-score, replicate B": -0.04, "z-score, replicate C": -0.56}
{"target gene": "GRAP2 (GeneID 9402)", "mean z-score": -0.14, "z-score, replicate A": -0.08, "z-score, replicate B": -0.08, "z-score, replicate C": -0.26}

Records above called active (1):
{"target gene": "CILP2 (GeneID 148113)", "mean z-score": "2.03 (active)", "z-score, replicate A": 2.22, "z-score, replicate B": 1.8, "z-score, replicate C": 2.08}
